A mixed list of measured activities; the numbers were collected in NIAID ChemDB.

Common to all: growth or infection tests; species: Varicella zoster virus; endpoint: EC50

a–b is a range or a potency band. Blank or dashed fields: not listed here. ECn: concentration that inhibits the pathogen or its effect by n%. Conditions beyond the fields shown may differ between rows.

smiles | strain or isolate | read by | result
Nc1nc2c(ncn2C[C@]2(CO)C[C@H]2CO)c(=O)[nH]1 |  | plaque count | 0.1–1 µM
Nc1ncc2ncn(/C=C3/CC3CO)c2n1 |  | ELISA | >100 µM
CC1(C)[C@H](CCO)C[C@@H]1n1nnc2c(=O)[nH]cnc21 | 07/1 (TK-) | plaque count | >50 µg/mL
Nc1nc2c(ncn2COC(CO)CO)c(=O)[nH]1 |  |  | 1–10 µM
O=c1[nH]c(=O)n([C@@H]2O[C@H](CO)[C@@H](O)[C@@H]2O)cc1/C=C/Cl | Kawaguchi acyclovir-resistant mutant A6 | plaque count | 0.000435 µg/mL
O=C(NCc1ccc(Cl)cc1)c1c[nH]c2ccc(C#CCO)cc2c1=O | 20 isolates | plaque count | 0.2 µM
Nc1nc2c(ncn2COC(CO)CO)c(=O)[nH]1 |  | plaque count | 1–10 µM
CC1(C)[C@H](CCO)C[C@@H]1n1cnc2c(N)ncnc21 | YS/R (TK-) | plaque count | 20 µg/mL
Nc1nc2c(ncn2[C@@H]2C=C[C@H](CO)CC2)c(=O)[nH]1 |  |  | 1–10 µM
Nc1nc2c(ncn2[C@H]2C=C[C@@H](CO)[C@H](O)C2)c(=O)[nH]1 | YS |  | 1.2 µg/mL
Nc1ncc2c(ncn2/C=C2/CC2CO)n1 |  | ELISA | >100 µM
Nc1nc2c(ncn2CCC(CO)CO)c(=O)[nH]1 |  | plaque count | 1–10 µM
Nc1nc2c(ncn2COC(CO)CO)c(=O)[nH]1 |  | cytopathic effect | 0.5 µg/mL
CC1(C)[C@H](CCO)C[C@@H]1n1cnc2c(=O)[nH]cnc21 | 07/1 (TK-) | plaque count | >50 µg/mL
Nc1nc2c(ncn2[C@H]2C=C[C@@H](CO)CC2)c(=O)[nH]1 |  |  | 1–10 µM
O=C(O)CP(=O)(O)O | Kawaguchi (BrdU-resistant) | plaque count | 4.25 µg/mL
CCCCCCCCc1cc2cn([C@H]3C[C@H](F)[C@@H](CO)O3)c(=O)nc2o1 | YS |  | >20 µM
O=C(NCc1ccc(Cl)cc1)c1c[nH]c2ccc(CCCO)cc2c1=O | COH | plaque count | 0.2 µM
CC(NC(=S)Nc1ccc(NC(=O)c2ccccc2F)c(C#N)c1)c1ccc(F)cc1 |  |  | 0.11 µM
Nc1nc2c(ncn2[C@@H]2C[C@H](CO)[C@H]2CO)c(=O)[nH]1 |  |  | 0.1–1 µM

For reference, 3 entries again:

Nc1nc2c(ncn2CCC(CO)CO)c(=O)[nH]1 ; read by: plaque count ; result: 1–10 µM
Nc1nc2c(ncn2COC(CO)CO)c(=O)[nH]1 ; read by: plaque count ; result: 1–10 µM
Nc1nc2c(ncn2[C@@H]2C=C[C@H](CO)CC2)c(=O)[nH]1 ; result: 1–10 µM